Measured values from several laboratories, pooled; numbers as filed in NIAID ChemDB.

Shared fields: cytotoxicity tests; cell line: A549; read-out: CC50

CCn: concentration that lowers growth or viability of the cells by n%. Lines come from different laboratories, so protocols vary.

C/C(=C\C=C\C(C)[C@H]1CC[C@@]2(C)[C@@H]3CC[C@H]4C(C)(C)C(=O)CC[C@]4(C)C3=CC[C@]12C)C(=O)O ; method: sulforhodamine / absorbance ; result: >50 µM
O=c1c2ccccc2[se]n1-c1cc(Cl)ccn1 ; result: 100 µg/mL
COc1ccc(-c2noc(C3=CC4(CCN(CC5CCCO5)CC4)c4ccccc43)n2)cc1 ; method: resazurin ; result: 68 µM
CCn1[se]c2ccccc2c1=O ; method: visual reading ; result: 3 µg/mL
O=c1c2cc(O)ccc2oc2cc(O)cc(O)c12 ; method: sulforhodamine / absorbance ; result: 49.01 µM
CCOC(Cn1[se]c2ccccc2c1=O)OCC ; method: visual reading ; result: 7.3 µg/mL
C1=C(c2nc(-c3ccccc3)no2)c2ccccc2OC12CCN(CC1CCCO1)CC2 ; method: resazurin ; result: 5 µM
O=c1c2ccccc2[se]n1-c1cc([N+](=O)[O-])ccn1 ; result: 400 µg/mL
COc1cc(-c2ccccc2)c(OC)c(OC)c1O ; method: sulforhodamine / absorbance ; result: >50 µM
C1=C(c2nc(-c3cccnc3)no2)c2ccccc2C12CCN(CC1CCCO1)CC2 ; method: resazurin ; result: >100 µM
CC(C)=CCC[C@@H](C)[C@@H]1CC[C@]2(C)C3=C(CC[C@@]12C)[C@@]1(C)CC[C@H](O)C(C)(C)[C@@H]1CC3 ; method: sulforhodamine / absorbance ; result: >50 µM
COc1ccc(-c2noc(C3=CC4(CCN(CC(C)O)CC4)c4ccccc43)n2)cc1 ; method: resazurin ; result: 3 µM
CCCn1[se]c2ncccc2c1=O ; result: 5 µg/mL
CCCn1[se]c2ccccc2c1=O ; method: visual reading ; result: 3.5 µg/mL
C1=C(c2nc(-c3ccsc3)no2)c2ccccc2C12CCN(CC1CCCO1)CC2 ; method: resazurin ; result: 12 µM
CCOC(=O)n1[se]c2ccccc2c1=O ; method: visual reading ; result: 17 µg/mL
O=c1c2ccccc2[se]n1-c1cccnc1 ; result: 3 µg/mL
COc1cc(-c2ccccc2)c(O)c(OC)c1O ; method: sulforhodamine / absorbance ; result: >50 µM
CNC(=O)CN1CCC2(C=C(c3nc(-c4ccc(OC)cc4)no3)c3ccccc32)CC1 ; method: resazurin ; result: >100 µM
CC(C)n1[se]c2ccccc2c1=O ; method: visual reading ; result: 3.5 µg/mL

The last 2 rows once more:

compound | method | result
CNC(=O)CN1CCC2(C=C(c3nc(-c4ccc(OC)cc4)no3)c3ccccc32)CC1 | resazurin | >100 µM
CC(C)n1[se]c2ccccc2c1=O | visual reading | 3.5 µg/mL